Measured values from several laboratories, pooled; numbers as filed in NIAID ChemDB.

All rows: whole-cell or culture tests; organism: HIV-2; cell line: CEM + CEM/0; measure: EC50

Lines come from different laboratories, so protocols vary. ECn is the concentration giving n% inhibition of infection, replication or growth. Blank or dashed fields: not listed here.

smiles | strain | method | value
O=c1[nH]c(=O)n([C@H]2C=C[C@@H](CO)O2)cc1Cl | ROD | syncytia | >50 µM
COC(=O)CCNP(=O)(OC[C@@H]1C=C[C@H](n2cc(C)c(=O)[nH]c2=O)O1)Oc1ccccc1 |  | cytopathic effect / microscopy | 6 µM
COC(=O)[C@H](C)NP(=O)(OC[C@H]1O[C@@H](n2cc(C)c(=O)[nH]c2=O)C[C@@H]1N=[N+]=[N-])Oc1ccccc1 | ROD |  | 0.07 µM
COC(=O)CCNP(=O)(OC[C@@H]1C=C[C@H](n2cc(C)c(=O)[nH]c2=O)O1)Oc1ccccc1 | ROD | cytopathic effect / trypan blue | ≥250 µM
COC(=O)C(C)NP(=O)(OC[C@@H]1C=C[C@H](n2cc(Cl)c(=O)[nH]c2=O)O1)Oc1ccccc1 | ROD | syncytia | 0.95 µM
COC(=O)CCCCCNP(=O)(OC[C@@H]1C=C[C@H](n2cc(C)c(=O)[nH]c2=O)O1)Oc1ccccc1 | ROD | cytopathic effect / trypan blue | ≥250 µM
Cc1cn([C@@H]2O[C@H](CO[Si](C)(C)C(C)(C)C)C3(OS(=O)(=O)C=C3N)[C@H]2O[Si](C)(C)C(C)(C)C)c(=O)n(CCCCCCCCn2c(=O)c(C)cn([C@H]3C[C@H](N=[N+]=[N-])[C@@H](CO)O3)c2=O)c1=O | ROD | syncytia | >100 µM
Cc1cn([C@@H]2O[C@H](COC(=O)N(C)C)C3(OS(=O)(=O)C=C3N)[C@H]2O[Si](C)(C)C(C)(C)C)c(=O)n(C)c1=O |  |  | >50 µM
COC(=O)[C@H](C)NP(=O)(OC[C@@H]1C=C[C@H](n2cc(C)c(=O)[nH]c2=O)O1)Oc1ccccc1 | ROD | cytopathic effect / trypan blue | 0.102 µM
CC(C)(C)C(=O)OC[C@@H]1C=C[C@H](n2cc(Cl)c(=O)[nH]c2=O)O1 | ROD | syncytia | ≥10 µM
Cc1cn([C@H]2C=C[C@@H](CO)O2)c(=O)[nH]c1=O | ROD | syncytia | 0.78 µM
COC(=O)[C@H](C)NP(=O)(OC[C@@H]1C=C[C@H](n2cc(C)c(=O)[nH]c2=O)O1)Oc1ccc(F)cc1 | ROD | syncytia | 0.19 µM
Cc1cn([C@@H]2O[C@H](COS(=O)(=O)c3ccccc3)C3(OS(=O)(=O)C=C3N)[C@H]2O[Si](C)(C)C(C)(C)C)c(=O)n(C)c1=O |  |  | >6.2 µM
CC1(C)[C@@H](CO)CC[C@@]1(C)Cn1cc(Br)c(=O)[nH]c1=O |  |  | >100 µg/mL
C=C1O[C@@H](n2cc(C)c(=O)n(C)c2=O)[C@H](O[Si](C)(C)C(C)(C)C)[C@]12OS(=O)(=O)C=C2N |  |  | >50 µM
CC1(C)[C@@H](CO)CC[C@@]1(C)Cn1cnc2c(Cl)ncnc21 |  |  | >14 µg/mL
COC(=O)[C@@H](NP(=O)(OC[C@@H]1C=C[C@H](n2cc(C)c(=O)[nH]c2=O)O1)Oc1ccccc1)C(C)C |  | cytopathic effect / microscopy | 13 µM
COC(=O)[C@H](C)NP(=O)(OC[C@@H]1C=C[C@H](n2cc(C)c(=O)[nH]c2=O)O1)Oc1ccccc1 | ROD |  | 0.102 µM
C=CCOC[C@H]1O[C@@H](n2cc(C)c(=O)n(C)c2=O)[C@H](O[Si](C)(C)C(C)(C)C)C12OS(=O)(=O)C=C2N |  |  | 43.3 µM
CC1(C)[C@@H](CO)CC[C@@]1(C)Cn1nnc2c(=O)[nH]cnc21 |  |  | >100 µg/mL
Cc1cn([C@@H]2O[C@H](CN3CCNCC3)C3(OS(=O)(=O)C=C3N)[C@H]2O[Si](C)(C)C(C)(C)C)c(=O)n(C)c1=O |  |  | >50 µM
COC(=O)CCCNP(=O)(OC[C@@H]1C=C[C@H](n2cc(C)c(=O)[nH]c2=O)O1)Oc1ccccc1 | ROD | cytopathic effect / trypan blue | ≥250 µM
CC(=O)OC[C@H]1O[C@@H](n2cc(C)c(=O)n(C)c2=O)[C@H](O[Si](C)(C)C(C)(C)C)C12OS(=O)(=O)C=C2N |  |  | >50 µM
CC1(C)[C@@H](CO)CC[C@@]1(C)Cn1cnc2c(N)ncnc21 |  |  | >100 µg/mL

For reference, 3 entries again:

smiles	strain	method	value
CC1(C)[C@@H](CO)CC[C@@]1(C)Cn1nnc2c(=O)[nH]cnc21			>100 µg/mL
CC(C)(C)C(=O)OC[C@@H]1C=C[C@H](n2cc(Cl)c(=O)[nH]c2=O)O1	ROD	syncytia	≥10 µM
O=c1[nH]c(=O)n([C@H]2C=C[C@@H](CO)O2)cc1Cl	ROD	syncytia	>50 µM